Measured values reported in patent publication US9119853B2, “Sanglifehrin based compounds” (priority 2010, dated 2015).

system: HCV genotype 1b I389luc-ubi-neo/NS3-3'/5.1 replicon in Huh5.2 cells; test: In vitro replicon assay for HCV antiviral activity (luciferase); type: cell-based, Hepatitis C Virus; conditions: Huh5.2 replicon

SMILES | Selectivity index (CC50/EC50)
C=CCNC(=O)/C=C/C=C(\C)[C@@H]1C/C=C/C=C/[C@H](O)[C@H](C)[C@@H](O)[C@@H](CCC(C)=O)C(=O)N[C@@H](C(C)C)C(=O)N[C@@H](Cc2cccc(O)c2)C(=O)N2CCCC(N2)C(=O)O1 (stereo partly drawn) [compound 25] | 30
CC(=O)CC[C@H]1C(=O)N[C@@H](C(C)C)C(=O)N[C@@H](Cc2cccc(O)c2)C(=O)N2CCCC(N2)C(=O)O[C@H](/C(C)=C/C=C/C(=O)N(CC(C)C)CC(C)C)C/C=C/C=C/[C@H](O)[C@H](C)[C@H]1O (stereo partly drawn) [compound 32] | 6.9
CC(=O)CC[C@H]1C(=O)N[C@@H](C(C)C)C(=O)N[C@@H](Cc2cccc(O)c2)C(=O)N2CCCC(N2)C(=O)O[C@H](/C(C)=C/C=C/C(=O)Nc2ccccn2)C/C=C/C=C/[C@H](O)[C@H](C)[C@H]1O (stereo partly drawn) [compound 48] | 238
